From patent US11419918B2 (Shenzhen Turier Biotech Co., Ltd., priority 2017, dated 2022)

Experiment: general procedure: Fmoc solid-phase peptide synthesis; Rink amide MBHA-LL resin; HCTU/DIEPA
Conditions: whole synthesis, scale 0.25 mmol

## His-(D-Ser)-Gln-Gly-Thr-Phe-Thr-Ser-Asp-Tyr-Ser-Lys-Tyr-Leu-Asp-Lys(PEG2-PEG2-γGlu-CO(CH2)14CH3)-Arg-Arg-Ala-Gln-Asp-Phe-Val-Gln-Trp-Leu-Met-Asn-Thr-Gly-Gly-Pro-Ser-Ser-Gly-Ala-Pro-Pro-Pro-Ser-NH2
  final HPLC purity: greater than 95%
